Test results: patent US7235366B1 (priority 1993, dated 2007)

Amino acid sequences for entries named in this document (tags omitted).
UniProt P35372, whole entry: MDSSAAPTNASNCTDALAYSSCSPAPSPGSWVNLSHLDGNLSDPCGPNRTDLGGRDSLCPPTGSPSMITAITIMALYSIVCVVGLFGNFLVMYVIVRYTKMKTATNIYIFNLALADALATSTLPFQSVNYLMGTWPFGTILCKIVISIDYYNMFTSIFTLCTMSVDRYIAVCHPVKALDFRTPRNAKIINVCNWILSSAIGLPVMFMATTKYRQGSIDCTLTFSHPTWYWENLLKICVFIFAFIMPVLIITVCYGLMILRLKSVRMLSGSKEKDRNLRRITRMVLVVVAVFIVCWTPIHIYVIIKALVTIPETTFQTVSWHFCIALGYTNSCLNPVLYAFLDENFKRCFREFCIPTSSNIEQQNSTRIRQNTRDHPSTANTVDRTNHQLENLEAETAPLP

Target: T1, cloned human μ opioid receptor (Homo sapiens, UniProt P35372)
T1 construct: This fragment includes the entire coding region of the human μ opioid receptor; expressed in transfected cells; host or cells: COS-7 (transient, pcDNA3)
Type: binding

pertussis toxin [PTX]
Decrease of specific [3H]DAMGO labelling of the human μ receptor: 79+/−8%
